Pooled drug test results. Numbers come from NIAID ChemDB, via PubChem.

All rows: tests in culture

ECn: concentration that inhibits the pathogen or its effect by n%. A number after MIC or MFC names an inhibition level or a share of isolates. Blank or dashed fields: not listed here. Inhibition is in % at the dose shown (toxicity tests: loss of growth or viability). Zones are inhibition diameters on agar. Lines come from different laboratories, so protocols vary. a–b is a range or a potency band.

SMILES,organism,strain,changes,cell line,method,conditions,measure,tested at,result
O=C(Nc1ccc2c(O)c(N=Nc3ccc(N=Nc4ccc(S(=O)(=O)O)cc4)cc3)c(S(=O)(=O)O)cc2c1)c1ccccc1,Adenovirus,TYPE 3,-,Human embryonic lung cells,cytopathic effect,-,inhibition,10 µg/mL,15%
Cc1c(O)c(=O)ccn1C,Pneumocystis carinii,-,-,Human fibroblasts,-,7 d,inhibition,18 µM,43%
NC(=NCc1ccccc1)c1ccc(N2CCN(c3ccccc3)CC2)cc1,Pneumocystis carinii,-,-,-,-,-,inhibition,50 µg/mL,93%
O=C(O)CP(=O)(O)O,Varicella zoster virus,Oka BVaraU-resistant,-,HEL,cytopathic effect,-,EC50,-,41.4 µM
NC(=NCCCc1ccccc1)c1ccc(N2CCN(c3ccccc3)CC2)cc1,Pneumocystis carinii,-,-,-,-,-,inhibition,10 µg/mL,96%
Cn1cc(C(=O)NCc2ccc(Cl)cc2)c(=O)c2cc(CN3CCOCC3)ccc21,Varicella zoster virus,GA varicella isolate,-,HFF,plaque count,-,EC50,-,0.2 µM
Nc1nc2c(ncn2COC(CO)CO)c(=O)[nH]1,Varicella zoster virus,Oka CF1368-resistant,-,HEL,cytopathic effect,-,EC50,-,2.6 µM
Cc1ccc(-n2cc(C(C)(C)O)nn2)cc1C,Candida parapsilosis,URM 4804,-,-,broth dilution,-,inhibition,2048 µg/mL,0%
CCCc1cc(=O)oc2c3c(c4c(c12)OC(C)(C)[C@H](O)[C@@H]4O)O[C@H](C)[C@@H](C)[C@@H]3O,Measles virus,MO6,-,CV-1,cytopathic effect,-,EC50,-,5 µg/mL
Cc1cccc(C)c1N=Nc1c(C)[nH]n(C(=O)c2sc3ccc(Cl)cc3c2Cl)c1=O,Pseudomonas aeruginosa,ATCC 27853,-,-,agar diffusion / agar,-,zone,40 µg/mL,12 mm
Nc1ncnc2c1ncn2[C@@H]1CC[C@@H](O)[C@H]1O,Measles virus,Halonen,-,CV-1,neutral red,-,EC50,-,<0.1 µg/mL
CCC(C)n1ncn(-c2ccc(N3CCN(c4ccc(OC[C@H]5CO[C@](Cn6cncn6)(c6ccc(Cl)cc6Cl)O5)cc4)CC3)cc2)c1=O,Aspergillus fumigatus,AF293,sakA,-,broth dilution,-,inhibition,8 µg/mL,99.92%
CC(C)(O)c1cn(-c2ccccc2)nn1,Candida parapsilosis,URM 4818,-,-,broth dilution,-,inhibition,2048 µg/mL,0%
Cc1ccc(Cl)cc1N=Nc1c(C)[nH]n(C(=O)c2sc3ccc(Cl)cc3c2Cl)c1=O,Pseudomonas aeruginosa,ATCC 27853,-,-,agar diffusion / agar,-,zone,40 µg/mL,14 mm
CCCc1cc(=O)oc2cc(OS(=O)(=O)c3ccc(C)cc3)cc(O)c12,Measles virus,Chicago,-,CV-1,cytopathic effect,-,EC50,-,1 µg/mL
COc1ccc(-n2c(C(=O)NCc3ccccc3)c3n(c2=O)C[C@@H](C)N(C(=O)c2ccc(Br)c(Cl)c2)C3)cc1,Hepatitis B virus,-,-,HepG2.117,PCR,-,EC50,-,0.5–5 µM
O=S(=O)([O-])c1cc(NS(=O)(=O)c2ccccc2)c2c(S(=O)(=O)[O-])cc(S(=O)(=O)[O-])cc2c1,Adenovirus,TYPE 3,-,Human embryonic lung cells,cytopathic effect,-,inhibition,10 µg/mL,60%
COc1ccc(C2OC(c3sc4ccc(Cl)cc4c3Cl)=NN2C(C)=O)cc1OC,Pseudomonas aeruginosa,ATCC 27853,-,-,agar diffusion / agar,-,zone,40 µg/mL,29 mm
Nc1ncnc2c1ncn2[C@@H]1C=C[C@@H](O)[C@H]1O,Measles virus,BIL,-,CV-1,neutral red,-,EC50,-,>10 µg/mL
O=C(O)P(=O)(O)O,Varicella zoster virus,Clinical isolate VZV-28,-,HEL,cytopathic effect,-,EC50,-,84.6 µM
CCCc1cc(=O)oc2cc(OC(=O)C(C)(C)C)c3c(c12)OC(C)(C)C=C3,Measles virus,X-1108,-,CV-1,cytopathic effect,-,EC50,-,3.6 µg/mL
Nc1cccc(S(=O)(=O)O)c1,Adenovirus,TYPE 3,-,Human embryonic lung cells,cytopathic effect,-,inhibition,10 µg/mL,0%
CC(=O)N1N=C(c2sc3ccc(Cl)cc3c2Cl)OC1c1ccccc1[N+](=O)[O-],Pseudomonas aeruginosa,ATCC 27853,-,-,agar diffusion / agar,-,zone,40 µg/mL,26 mm
Nc1ncnc2c1ncn2[C@@H]1C[C@H](N)[C@@H](O)[C@H]1O,Measles virus,BIL,-,CV-1,neutral red,-,EC50,-,100 µg/mL
COc1cc2occc2cc1CNC(=O)c1c2n(c(=O)n1-c1ccc(OC(C)C)cc1)CCN(C(=O)c1ccc(Br)c(Cl)c1)C2,Hepatitis B virus,-,-,HepG2.117,PCR,-,EC50,-,0.1–0.5 µM
CN1CCN(C(=O)c2ccc3nc4ccccc4c(NCCc4c[nH]c5ccccc45)c3c2)CC1,West Nile virus,-,-,BHK,replicon,-,EC50,-,13.7 µM
COc1cc(Cl)c(-n2c(C(=O)NCc3ccccc3)c3n(c2=O)CCN(C(=O)c2ccc(Cl)c(Cl)c2)C3)c(Cl)c1,Hepatitis B virus,-,-,HepG2.117,PCR,-,EC50,-,>5 µM
O=C(Nc1ccc(S(=O)(=O)[O-])c2cccc(S(=O)(=O)[O-])c12)c1ccccc1,Adenovirus,TYPE 3,-,Human amnion AV3 cells,cytopathic effect,-,inhibition,5 µg/mL,0%
CCN(CC)C(=O)c1ccc2nc3ccccc3c(NCCc3c[nH]c4ccccc34)c2c1,West Nile virus,-,-,BHK,replicon,-,EC50,-,7 µM
O=c1[nH]c(=O)n([C@H]2C[C@H](O)[C@@H](CO)O2)cc1Br,Murine polyoma virus,-,-,ME,hybridisation,-,inhibition,63.4 µg/mL,88.8%
Nc1nc2c(ncn2COC(CO)CO)c(=O)[nH]1,Cytomegalovirus,AD169,-,HFF,hybridisation,-,inhibition,10 µM,74%
C[C@@]1(O)[C@H](O)[C@@H](COP(=O)(O)OP(=O)(O)OP(=O)(O)O)O[C@H]1n1ccc2c(N)ncnc21,West Nile virus,-,-,VERO,neutral red,-,EC50,-,4.5 µM
COCCn1ccc(=O)c(O)c1C,Pneumocystis carinii,-,-,Human fibroblasts,-,7 d,inhibition,18 µM,21%
CN1CCN(C(=O)c2ccc3nc4ccccc4c(Oc4ccccc4)c3c2)CC1,West Nile virus,-,-,BHK,replicon,-,EC50,-,28 µM
O=S(=O)([O-])c1ccc2c(O)cc(S(=O)(=O)[O-])cc2c1,Adenovirus,TYPE 3,-,Human amnion AV3 cells,cytopathic effect,-,inhibition,5 µg/mL,0%
CCCCCCCN=C(N)c1ccc(N2CCN(c3ccccc3)CC2)cc1,Pneumocystis carinii,-,-,-,-,-,inhibition,10 µg/mL,90%
O=c1[nH]c(=O)n([C@@H]2O[C@H](CO)[C@@H](O)[C@@H]2O)cc1/C=C/Br,Varicella zoster virus,Oka CF1743-resistant,-,HEL,cytopathic effect,-,EC50,-,>57 µM
CN(C)c1cc(NC(=O)CNC(C)(C)C)c(O)c2c1C[C@H]1C[C@H]3[C@H](N(C)C)C(=O)C(C(N)=O)=C(O)[C@@]3(O)C(=O)C1=C2O,Enterococcus faecium,20 strains (vancomycin-susceptible),-,-,-,-,MIC50,-,0.12 µg/mL
CC(=O)Nc1ccc(N=Nc2c(C)[nH]n(C(=O)c3sc4ccc(Cl)cc4c3Cl)c2=O)cc1,Pseudomonas aeruginosa,ATCC 27853,-,-,agar diffusion / agar,-,zone,40 µg/mL,15 mm
COC(=O)[C@H](C)NC(=O)[C@H](Cc1ccc(O)cc1)NC(=O)[C@@H]1CCCN1C(=O)[C@H](CC(C)C)NC(=O)CNC(=O)[C@@H]1CCCN1C(=O)[C@H](CC(=O)O)NC(C)(C)C,Pseudomonas aeruginosa,-,-,-,-,-,zone,6 µg/mL,24 mm
COc1ccc(S(=O)(=O)N(CC(C)C)C[C@@H](O)CC(=O)N2CSCC2C(=O)NC(C)(C)C)cc1,HIV-1,IIIB,-,CEM,p24,-,EC90,-,1 µM
CCCc1cc(=O)oc2cc(OS(=O)(=O)c3ccc(C)cc3)cc(OS(=O)(=O)c3ccc(C)cc3)c12,Measles virus,SA,-,CV-1,cytopathic effect,-,EC50,-,0.5 µg/mL
CCCCCCCCCCCCOC(=O)[C@]1(O)C[C@@H](O)[C@@H](O)[C@H](OC(=O)/C=C/c2ccc(O)c(O)c2)C1,Aspergillus ochraceus,CB 108.08,-,-,absorbance,-,MIC50,-,1900 µM
C=CCc1ccc(O)c(OC)c1,Candida tropicalis,2356,-,-,turbidity,-,MIC90,-,500 µg/mL
CC(C)(O)c1cn(-c2ccc([N+](=O)[O-])cc2)nn1,Candida parapsilosis,URM 4804,-,-,broth dilution,-,inhibition,2048 µg/mL,0%
N=C(N)c1ccc(OCCCCCOc2ccc(C(=N)N)cc2)cc1,Pneumocystis carinii,-,-,-,-,-,inhibition,10 µg/mL,88%
Nc1nc2c(ncn2CCC(CO)CO)c(=O)[nH]1,Varicella zoster virus,Clinical isolate VZV-32,-,HEL,cytopathic effect,-,EC50,-,2.55 µM
O=S(=O)([O-])c1cc(S(=O)(=O)[O-])c2cc(NS(=O)(=O)c3ccccc3)ccc2c1,Rhinovirus,-,-,Human embryonic lung cells,cytopathic effect,-,inhibition,50 µg/mL,15%
Nc1nc2c(ncn2COCCO)c(=O)[nH]1,Guinea pig herpesvirus,Lymphotropic,-,GPE,virus yield,-,EC90,-,354 µg/mL
CC(=O)N(O)CCCCCNC(=O)CCC(=O)N(O)CCCCCNC(=O)CCC(=O)N(O)CCCCCN,Pneumocystis carinii,-,-,Human fibroblasts,-,7 d,inhibition,7.5 µM,56%
CC(C)(O)c1cn(-c2cccc3ccccc23)nn1,Candida tropicalis,URM 1150,-,-,-,-,inhibition,2048 µg/mL,0%
Nc1ncnc2c1ncn2[C@H]1CC[C@H](O)[C@@H]1O,Measles virus,-,-,CV-1,neutral red,-,EC50,-,<0.1 µg/mL